Assay results reported in ChEMBL document CHEMBL1629571, “High prevalence of plasmid-mediated quinolone resistance determinants qnr, aac(6')-Ib-cr, and qepA among ceftiofur-resistant Enterobacteriaceae isolates from companion and food-producing animals” (2009).

Experiments:
[1] = test system: Escherichia coli; conditions: J53
[2] = test system: Escherichia coli; conditions: J53; remark: listed apart in the source

GENTAMICIN showed an MIC [1] of 0.5 µg/mL and an MIC [2] of 0.5 µg/mL.
